{
  "sequences": {"note": "By UniProt entry, the sequences of proteins in these tests, tags left out. Where a name states a change or a piece, a line headed by the entry shows the natural chain unless it says otherwise.", "UniProt P15905": "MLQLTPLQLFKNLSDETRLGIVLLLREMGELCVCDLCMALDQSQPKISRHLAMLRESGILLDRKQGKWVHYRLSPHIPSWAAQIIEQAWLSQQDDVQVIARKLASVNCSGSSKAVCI"},
  "source": "patent US20040115786A1",
  "about": "(priority 2001, published 2004)",
  "target": "ArsR (Escherichia coli, UniProt P15905)",
  "test": "Surface plasmon resonance (BIAcore): ArsR binding to immobilized dsDNA in the presence of arsenic ligand",
  "conditions": "PAO 100 μM (highest concentration); ArsR 3.27 μM injected over PLASL1 and CHROML1 surfaces; HBS-EP, 25° C.",
  "data": [
    {"molecule": "O=[As]c1ccccc1", "note": "(stereo not shown)", "values": [
      {"measurement": "inhibition of ArsR binding", "value": "about 55%"}
    ]}
  ]
}
